Taken from: PubChem BioAssay AID1259414 (Drosophila RNAi Screening Center, 2018)
In all, the deposit lists about 24,000 reagents; below is a random part of those with a known target gene and a result. In the full data, about 1,210 (5%) were called active. 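Inactive calls also include excluded dsRNAs with several or no targets, genes unexpressed in JW18, and well A1, regardless of score.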 Reagents against one gene are numbered here. A plus sign joins genes that one reagent is predicted to hit.

- Test: 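Host factors increasing or decreasing Wolbachia levels in cultured fly cells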 (primary screen)
- System: Drosophila JW18 cells infected with Wolbachia
- Reagent: long dsRNA against Drosophila genes, 0.25 µg dsRNA per well of a 384-well plate
- Duration: 5 days
- Treatment: cells persistently infected with Wolbachia before knock-down; no added drug
- Measured: 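Imaged fluorescence in situ signal for Wolbachia 23S rRNA per DAPI-counted host cell, given as a robust z-score within each plate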
- Scale: Wolbachia per cell robust z: higher = more Wolbachia per host cell than the plate typical
- Active means: 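Hit when robust z is 1.5 or more, or -1.5 or less, in at least two of three replicates; excludes dsRNAs with several or no targets, genes not expressed in JW18 and well A1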

"Wolbachia per cell robust z, rep 1","Wolbachia per cell robust z, rep 2","Wolbachia per cell robust z, rep 3",outcome,Gene,reagent no.
-0.814,0.704,0.711,inactive,CG15317,1
0.745,0.168,-0.398,inactive,CG15317,2
-0.208,1.38,0.495,inactive,CG14864,1
0.703,1.81,-1.64,inactive,Nsun5 (Nop2/Sun-like domain containing protein 5),1
0.409,-0.564,0.898,inactive,CG1662,1
0.0906,-0.903,0.585,inactive,CG15336,1
0.575,-0.456,-1.73,inactive,CG15336,2
-2.56,-0.156,0.466,inactive,Gbeta76C (G protein beta subunit 76C),1
0.422,-1.11,-0.103,inactive,CG3868,1
0.471,-1.95,0.911,inactive,Gss2 + Gss1,1
-1.17,0.329,0.314,inactive,mthl12 (methuselah-like 12),1
-0.477,-1.52,-0.716,inactive,CG42588,1
-0.137,1.2,0.206,inactive,CG42588,2
-0.397,-0.922,0.124,inactive,CG42588,3
-0.119,-2.05,0.0141,inactive,CG42588,4
0.0309,0.737,-0.163,inactive,Grp170 (Grp170 co-chaperone),1
-0.0513,-0.336,-0.57,inactive,Grp170 (Grp170 co-chaperone),2
0.968,-2.56,0.853,inactive,CG14797 + CG32809,1
-3.82,0.0375,-2.74,active,CG12099,1
1.4,0.552,-0.491,inactive,Gdap1,1
-0.735,-2.76,-0.163,inactive,Gdap1,2
0.931,0.0369,0.131,inactive,Ama (Amalgam),1
-0.238,-7.5,0.0608,inactive,"fbp (fructose-1,6-bisphosphatase)",1
0.342,0.905,0.561,inactive,"fbp (fructose-1,6-bisphosphatase)",2
-0.511,-0.888,0.142,inactive,CG30053,1
-0.633,0.65,-0.418,inactive,Nop60B (Nucleolar protein at 60B),1
-0.936,-2.02,-0.261,inactive,gogo (golden goal),1
-0.849,-3.63,-1.92,active,gogo (golden goal),2
